Experimental data from US6635636B1, “Substituted 6-benzyl-4-oxopyrimidines, process for their preparation and pharmaceutical compositions containing them” (Idenix Pharmaceuticals, Inc., priority 1998, dated 2003).

System: HIV-1 (IIIB strain)
Assay: Anti-HIV-1 assay: inhibition of virus-induced cytopathicity in acutely infected MT-4 cells (MTT)
Format: cell-based
Details: for SI: selectivity index, CC50/EC50 ratio: CC50 (mock-infected cells) / EC50 (HIV-1 in MT-4 cells)
Procedure: Compounds. Compounds were solubilized in DMSO at 200 mM and then diluted into culture medium.
Cells and viruses. MT-4, C8166, H9/IIIB and CEM cells were grown at 37° C. in a 5% CO2 atmosphere in RPMI 1640 medium, supplemented with 10% fetal calf serum (FCS), 100 UI/mL penicillin and 100 μg/mL streptomycin. Cell cultures were checked periodically for the absence of mycoplasma contamination with a MycoTect Kit (Gibco). Human immunodeficiency virus type-1 (HIV-1, IIIB strain) was obtained from supernatants of persistently infected H9/IIIB cells.
Anti-HIV assays. Activity of the compounds against HIV-1 and HIV-2 multiplication in acutely infected cells was based on the inhibition of virus-induced cytopathicity in MT-4 and C8166 cells, respectively. Briefly, 50 μL of culture medium containing 1×10^4 cells were added to each well of flat-bottom microtiter trays containing 50 μl of culture medium with or without various concentrations of the test compounds. Then 20 μL of an HIV suspension containing 100 CCID50 were added. After a 4-day incubation at 37° C., the number of viable cells was determined by the 3-(4,5-dimethylthiazol-[…])-2,5-diphenyltetrazolium bromide (MTT) method. Cytotoxicity of the compounds was evaluated in parallel with their antiviral activity. It was based on the viability of mock-infected cells, as monitored by the MTT method.

SMILES: CSCSc1nc(Cc2c(F)cccc2F)c(C(C)C)c(=O)[nH]1 [MC 1145]
- SI: selectivity index, CC50/EC50 ratio: 2,000

SMILES: CCc1c(Cc2c(F)cccc2F)nc(SCSC)[nH]c1=O [MC 1157]
- SI: selectivity index, CC50/EC50 ratio: 454

SMILES: CSCSc1nc(Cc2c(F)cccc2F)cc(=O)[nH]1 [MC 1161]
- SI: selectivity index, CC50/EC50 ratio: >250

SMILES: CSCSc1nc(Cc2c(F)cccc2F)c(C)c(=O)[nH]1 [MC 1162]
- SI: selectivity index, CC50/EC50 ratio: 250

SMILES: CNc1nc(Cc2c(F)cccc2F)cc(=O)[nH]1 [MC 1167]
- SI (selectivity index, CC50/EC50 ratio): >133

SMILES: CNc1nc(Cc2c(F)cccc2F)c(C)c(=O)[nH]1 [MC 1168]
- SI (selectivity index, CC50/EC50 ratio): 335

SMILES: CN(C)c1nc(Cc2c(F)cccc2F)cc(=O)[nH]1 [MC 1182]
- SI: selectivity index, CC50/EC50 ratio: >4,000

SMILES: CCCCNc1nc(Cc2c(F)cccc2F)c(C)c(=O)[nH]1 [MC 1185]
- SI (selectivity index, CC50/EC50 ratio): >10,000

SMILES: O=c1cc(Cc2c(F)cccc2F)nc(N2CCOCC2)[nH]1 [MC 1188]
- SI: selectivity index, CC50/EC50 ratio: >333

SMILES: O=c1cc(Cc2c(F)cccc2F)nc(N2CCSCC2)[nH]1 [MC 1193]
- SI: selectivity index, CC50/EC50 ratio: >4,000

SMILES: O=c1cc(Cc2c(F)cccc2F)nc(N2CCCCC2)[nH]1 [MC 1194]
- SI: selectivity index, CC50/EC50 ratio: >10,000

SMILES: Cc1c(Cc2c(F)cccc2F)nc(N(C)C)[nH]c1=O [MC 1195]
- SI: selectivity index, CC50/EC50 ratio: >10,000

SMILES: O=c1cc(Cc2c(F)cccc2F)nc(N2CCCC2)[nH]1 [MC 1196]
- SI: selectivity index, CC50/EC50 ratio: >95

SMILES: CCN(CC)c1nc(Cc2c(F)cccc2F)cc(=O)[nH]1 [MC 1202]
- SI: selectivity index, CC50/EC50 ratio: >769

SMILES: CCCN(CCC)c1nc(Cc2c(F)cccc2F)cc(=O)[nH]1 [MC 1204]
- SI: selectivity index, CC50/EC50 ratio: >53

SMILES: Cc1c(Cc2c(F)cccc2F)nc(N2CCOCC2)[nH]c1=O [MC 1205]
- SI: selectivity index, CC50/EC50 ratio: >4,255
